Values quoted from earlier work as cited in patent USRE39240E1 (priority 1993, dated 2006).

Chains of the proteins cited; added tags and fusions are not shown.
UniProt Q00975, whole entry, looked up: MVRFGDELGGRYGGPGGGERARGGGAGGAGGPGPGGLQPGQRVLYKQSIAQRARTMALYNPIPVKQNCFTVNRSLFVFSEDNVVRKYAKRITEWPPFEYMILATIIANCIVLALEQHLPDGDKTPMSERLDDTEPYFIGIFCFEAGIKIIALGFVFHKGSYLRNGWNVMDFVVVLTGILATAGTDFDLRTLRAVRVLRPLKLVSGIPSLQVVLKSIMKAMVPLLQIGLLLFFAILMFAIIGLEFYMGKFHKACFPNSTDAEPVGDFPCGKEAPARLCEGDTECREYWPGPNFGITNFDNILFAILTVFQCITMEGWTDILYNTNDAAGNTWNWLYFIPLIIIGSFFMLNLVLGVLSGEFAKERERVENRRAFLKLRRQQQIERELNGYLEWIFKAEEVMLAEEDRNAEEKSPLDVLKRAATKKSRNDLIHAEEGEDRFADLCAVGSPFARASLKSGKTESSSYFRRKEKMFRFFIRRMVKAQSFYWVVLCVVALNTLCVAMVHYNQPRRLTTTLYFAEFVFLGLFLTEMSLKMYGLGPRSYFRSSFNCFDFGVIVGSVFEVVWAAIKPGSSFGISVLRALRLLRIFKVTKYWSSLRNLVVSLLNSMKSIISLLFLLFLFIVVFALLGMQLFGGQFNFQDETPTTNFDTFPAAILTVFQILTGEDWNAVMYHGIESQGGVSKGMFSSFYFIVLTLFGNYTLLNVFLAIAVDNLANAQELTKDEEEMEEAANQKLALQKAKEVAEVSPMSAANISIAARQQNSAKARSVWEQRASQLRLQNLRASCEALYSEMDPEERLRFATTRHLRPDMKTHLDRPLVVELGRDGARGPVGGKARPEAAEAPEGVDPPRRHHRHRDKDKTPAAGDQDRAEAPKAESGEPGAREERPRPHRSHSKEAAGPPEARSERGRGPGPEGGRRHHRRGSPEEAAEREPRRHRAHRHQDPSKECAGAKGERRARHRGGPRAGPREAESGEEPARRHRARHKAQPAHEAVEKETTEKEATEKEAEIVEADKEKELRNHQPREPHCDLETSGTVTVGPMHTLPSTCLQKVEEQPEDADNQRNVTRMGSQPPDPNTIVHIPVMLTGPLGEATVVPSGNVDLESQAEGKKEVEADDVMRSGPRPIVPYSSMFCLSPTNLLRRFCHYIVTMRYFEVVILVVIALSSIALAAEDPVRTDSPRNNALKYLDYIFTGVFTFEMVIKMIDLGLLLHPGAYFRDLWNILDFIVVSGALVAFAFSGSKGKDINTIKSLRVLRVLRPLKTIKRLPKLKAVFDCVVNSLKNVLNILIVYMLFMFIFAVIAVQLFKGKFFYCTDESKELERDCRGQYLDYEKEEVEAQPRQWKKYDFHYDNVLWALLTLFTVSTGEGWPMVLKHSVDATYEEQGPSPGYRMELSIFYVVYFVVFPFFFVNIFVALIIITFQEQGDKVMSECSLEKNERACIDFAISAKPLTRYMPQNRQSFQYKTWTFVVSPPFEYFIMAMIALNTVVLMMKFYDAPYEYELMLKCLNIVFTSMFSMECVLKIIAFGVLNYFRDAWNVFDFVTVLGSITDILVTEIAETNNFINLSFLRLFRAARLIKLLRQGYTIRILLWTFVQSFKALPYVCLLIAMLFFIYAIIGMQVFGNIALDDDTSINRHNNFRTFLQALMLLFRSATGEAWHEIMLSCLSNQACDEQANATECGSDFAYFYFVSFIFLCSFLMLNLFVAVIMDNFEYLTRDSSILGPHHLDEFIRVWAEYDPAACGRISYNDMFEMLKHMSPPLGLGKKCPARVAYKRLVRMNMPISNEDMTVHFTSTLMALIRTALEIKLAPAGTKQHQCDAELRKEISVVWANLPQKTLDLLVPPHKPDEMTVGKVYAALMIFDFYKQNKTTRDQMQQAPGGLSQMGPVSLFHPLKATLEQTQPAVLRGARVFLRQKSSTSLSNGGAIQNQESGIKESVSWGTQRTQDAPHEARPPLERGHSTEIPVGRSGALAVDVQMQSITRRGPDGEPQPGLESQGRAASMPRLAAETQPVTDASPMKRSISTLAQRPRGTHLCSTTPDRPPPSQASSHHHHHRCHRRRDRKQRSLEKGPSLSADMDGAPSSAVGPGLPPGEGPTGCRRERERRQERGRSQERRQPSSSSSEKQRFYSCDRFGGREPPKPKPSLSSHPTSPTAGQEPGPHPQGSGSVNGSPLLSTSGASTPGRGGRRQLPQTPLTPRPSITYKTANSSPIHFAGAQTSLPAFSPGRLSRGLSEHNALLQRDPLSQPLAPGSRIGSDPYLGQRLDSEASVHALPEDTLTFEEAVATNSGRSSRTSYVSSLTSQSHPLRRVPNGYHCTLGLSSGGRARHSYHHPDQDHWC

Target: neuronal voltage-sensitive Ca^2+ channels (Homo sapiens, UniProt Q00975)

Substance: Ω-conotoxin GVIA
- affinity (Kd) for its high-affinity targets: sub-picomolar
- time for 50% of the peptide to dissociate: more than 7 hours
